Results deposited as PubChem BioAssay AID504761 (Drosophila RNAi Screening Center, 2011)

Screen: 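Genome-wide fly cell screen for genes dengue virus requires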 (primary screen)
Cell system: D.Mel-2 cells from Drosophila
Reagent: long dsRNA against Drosophila genes
Treatment: infection with dengue virus type 2; dose and infection time not stated
Measurement: 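Per well on two replicate plates, imaging gave the percent of cells positive for viral envelope protein, ranked by infection, and a nuclear count of cells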
Scale: infection score: higher = more virus-infected cells; cell count: higher = more cells in the well
Rule for the call: 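Low infection ranks in the two replicates (chance level up to 0.065) followed by a retest with a 1.5-fold or larger significant decrease, p below 0.05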
Meaning of the calls: active = confirmed: knock-down lowers infection; inactive = not picked or not confirmed
The screen tested about 22,000 reagents; shown is an unselected part of those that have a named target and a result. Over the whole deposit, 116 (0.52%) were called active. 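Calls depend on retest data that are not deposited; infection was ranked per plate without normalising between plates; the unit of the infection score is not given.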 Raw values are not corrected between plates. No sequences are given here. Not stated in the record: the amount of reagent, the time to read-out.

Target gene	DRSC id	infection score, replicate 1	infection score, replicate 2	cell count, replicate 1	cell count, replicate 2	Call
Wbp2	DRSC25018	1.82	2.52	6850	6313	inactive
Bbd	DRSC06709	1.49	5.43	6302	6101	inactive
snoRNA:Me18S-C1280 (retired record)	DRSC26813	11.3	15.3	6533	6853	inactive
Hpr1	DRSC12296	17	18	5896	6368	inactive
Snap24	DRSC16864	1.37	1.24	6285	6598	inactive
CG15721	DRSC19688	9.37	11.3	5793	5717	inactive
Yod1	DRSC10433	11.4	9.6	6647	6124	inactive
Yod1	DRSC27122	11.5	9.77	6777	6298	inactive
Ssl	DRSC04657	4.82	2.78	6571	6799	inactive
Ssl	DRSC26276	13.5	8.44	3757	5637	inactive
dan	DRSC14406	3.11	4.12	6530	6016	inactive
dan	DRSC29653	16.1	6.12	5004	980	inactive
CG12375	DRSC02163	8.13	4.53	6184	6496	inactive
CG12375	DRSC26794	11.7	13.9	6857	6437	inactive
dgt2	DRSC02548	4.24	2.04	6368	6607	inactive
dgt2	DRSC29741	21.3	8.03	6052	6173	inactive
CG5087	DRSC10479	5.95	6.7	5609	6089	inactive
cv	DRSC17833	1.21	1.06	6703	6974	inactive
CG15023	DRSC08477	3.81	5.24	6064	5898	inactive
CG15023	DRSC25462	1.71	4.5	5679	5928	inactive
CG13614	DRSC14617	1.74	5.09	6678	5968	inactive
Plzf	DRSC02994	12.6	13.9	6464	6270	inactive
S-Lap3	DRSC10956	7.43	11.5	5870	5755	inactive
S-Lap3	DRSC23958	7.62	8.29	6139	6176	inactive
Cdc27	DRSC11112	9.95	7.64	2261	2250	inactive
Cdc27	DRSC23438	2.11	26.4	855	1518	inactive
CG33272	DRSC09116	2.36	3.1	4911	5222	inactive
CG14232	DRSC19588	3.39	2.7	5959	5892	inactive
CG14232	DRSC27714	19.3	26.3	5710	6137	inactive
Pi4KIIIalpha	DRSC18655	7.43	2.83	5542	5893	inactive
Jhbp11	DRSC15183	2.79	12.2	6526	4605	inactive
Jhbp11	DRSC29679				406	inactive
ari-2	DRSC04672	26.1	21.1	5581	2161	inactive
ari-2	DRSC27896	3.88	24.2	7013	5752	inactive
Larp7	DRSC18798	0.99	2.5	6238	6471	inactive
Larp7	DRSC27687	4.35	7.93	6223	6468	inactive
CG13506	DRSC04150	9.7	16.5	5948	6819	inactive
Vps36	DRSC09785	0.66	0.39	5800	6103	inactive
Neos	DRSC11235	14.2	12.8	5194	4979	inactive
hog	DRSC19057	1.5	0.68	6525	6725	inactive
hog	DRSC26603	1.9	1.32	6630	6043	inactive
Osi3	DRSC12175	5.25	5.4	6321	6791	inactive
CG30203	DRSC06690	13.9	28	6144	5719	inactive
neb	DRSC03577	3.99	4.64	5988	5995	inactive
neb	DRSC28464	16.1	13.1	4803	3201	inactive
CG13492	DRSC04137	4.49	6.62	6569	6695	inactive
CG4766	DRSC17736	1.62	1.25	6596	6490	inactive
CIA30	DRSC16266	1.72	4.99	6639	6352	inactive
OXA1L	DRSC09672	6.71	6.66	4857	5003	inactive
OXA1L	DRSC29571	13.8	17.4	3164	3799	inactive
sau	DRSC00694	5.63	23.1	5312	4817	inactive
Peritrophin-A	DRSC20570	9.1	3.49	6463	6274	inactive
CG4734	DRSC06885	21.2	26.3	4650	4514	inactive
CG4734	DRSC22072	5.82	3.24	6565	6482	inactive
Asap	DRSC06493	1.07	18.8	6366	5902	inactive
Asap	DRSC06830	3.7	11.3	5912	6039	inactive
crp	DRSC03515	52.1	18.4	4475	7666	inactive
CG31013	DRSC16542	14.8	2.17	4075	646	inactive

5 of these entries in another layout:
Target gene,DRSC id,"infection score, replicate 1","infection score, replicate 2","cell count, replicate 1","cell count, replicate 2",Call
Yod1,DRSC27122,11.5,9.77,6777,6298,inactive
Ssl,DRSC04657,4.82,2.78,6571,6799,inactive
Ssl,DRSC26276,13.5,8.44,3757,5637,inactive
dan,DRSC14406,3.11,4.12,6530,6016,inactive
dan,DRSC29653,16.1,6.12,5004,980,inactive
